Data as given in publication doi:10.1101/2024.08.16.608213.

Molecular target: T1, SPM-1 beta-lactamase (Pseudomonas aeruginosa) (UniProt Q8G9Q0)
T1 sequence (looked up, limits assumed): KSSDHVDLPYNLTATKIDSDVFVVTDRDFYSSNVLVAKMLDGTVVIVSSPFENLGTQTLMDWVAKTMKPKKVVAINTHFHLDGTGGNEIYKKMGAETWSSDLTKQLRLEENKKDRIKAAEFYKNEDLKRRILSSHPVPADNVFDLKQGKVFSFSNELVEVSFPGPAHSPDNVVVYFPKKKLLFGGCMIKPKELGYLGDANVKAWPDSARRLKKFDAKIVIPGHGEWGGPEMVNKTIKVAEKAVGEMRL
Assay: BLI
Details: 5 mM Mg2+, 5 uM Zn2+, only the range over all aptamers given

GGGAGACUCAGCCUUCACUGCUAGAGAUUCGGUGGGACACCCGGUGAAAGGCUGACCACUAGGCACCACGGUCGGAUCC [S1 RNA]
binding result: binds

The exact form of at least one protein or probe is not confirmed. At least one verdict was read from the data and is not stated in words by the source. Tags and fusion partners may be left off the protein sequences shown.
